Data source: PubChem BioAssay AID624099 (ICCB-Longwood, 2012)
The deposit covers about 21,000 reagents; this is an unselected part. 497 of all reagents (2.4%) were called active. 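Higher z means weaker E2 silencing; only reporter increases were scored, and knock-downs that hurt cell survival may mask genuine repressor factors.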 A number with no mark means an inactive call.

Test: 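Host factors E2 relies on to silence an HPV18 LCR reporter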 (primary screen)
Cell system: human C33A cervical carcinoma cells (HPV-negative) stably expressing BPV1 E2 and an HPV18 LCR luciferase reporter
Reagent: siRNA pool against human genes, 40 nM
Time to read-out: 72 h
Detection: 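HPV18 LCR reporter light per well, converted to plate-wise z-scores that exclude control wells, and averaged over triplicate plates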
Scale: mean z-score and z-score: higher = stronger reporter signal, weaker E2 silencing
Hit rule: 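Hit if mean z-score reaches 2 and two or more of three replicate z-scores also reach 2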

| target gene | PubChem SID | mean z-score | z-score, replicate A | z-score, replicate B | z-score, replicate C |
| --- | --- | --- | --- | --- | --- |
| PCBP2 (GeneID 5094) | SID134316307 | -1.59 | -1.55 | -1.57 | -1.64 |
| FGF16 (GeneID 8823) | SID134315870 | 0.14 | 0.21 | 0.18 | 0.02 |
| DTNBP1 (GeneID 84062) | SID134321390 | -0.02 | -0.02 | -0.02 | -0.01 |
| SH2B3 (GeneID 10019) | SID134323716 | 0.73 | 0.95 | 0.81 | 0.44 |
| GALNT12 (GeneID 79695) | SID134320421 | -0.24 | -0.58 | -0.42 | 0.29 |
| BCAP31 (GeneID 10134) | SID134322525 | -0.56 | -0.45 | -0.69 | -0.52 |
| RBPJ (GeneID 3516) | SID134312734 | 0.19 | 0.04 | 0.23 | 0.29 |
| DLEU2 (GeneID 8847) | SID134323808 | 0.16 | 0.26 | 0.04 | 0.17 |
| PBX4 (GeneID 80714) | SID134317212 | -0.77 | -0.67 | -0.87 | -0.78 |
| DNPEP (GeneID 23549) | SID134311278 | 1.22 | 1.31 | 1.2 | 1.15 |
| PABPC1 (GeneID 26986) | SID134323376 | -0.32 | -0.26 | -0.6 | -0.11 |
| TMEM87A (GeneID 25963) | SID134322261 | -1.1 | -1.11 | -1.15 | -1.05 |
| PTP4A2 (GeneID 8073) | SID134313914 | 0.51 | 0.37 | 0.65 | 0.5 |
| TCEAL9 (GeneID 51186) | SID134324699 | -0.52 | -0.56 | -0.06 | -0.94 |
| GRIN2B (GeneID 2904) | SID134311615 | 0.47 | 0.41 | 0.68 | 0.3 |
| ELOVL6 (GeneID 79071) | SID134313710 | -0.88 | -1.07 | -0.96 | -0.62 |
| DDR1 (GeneID 780) | SID56478491 | 0.06 | -0.04 | 0.28 | -0.06 |
| GDPD1 (GeneID 284161) | SID134322817 | 0.15 | 0.16 | 0.08 | 0.21 |
| PTEN (GeneID 5728) | SID134309810 | -0.59 | -0.43 | -0.77 | -0.57 |
| SYT1 (GeneID 6857) | SID134323789 | 0.71 | 0.93 | 0.52 | 0.68 |
| HTT (GeneID 3064) | SID134310062 | -1.15 | -1.08 | -1.12 | -1.24 |
| PSMG4 (GeneID 389362) | SID134327643 | -0.34 | -0.49 | -0.51 | -0.03 |
| KRTAP12-1 (GeneID 353332) | SID134322676 | -0.25 | 0.08 | -0.55 | -0.27 |
| RPLP1P3 (GeneID 127099) | SID134325202 | -0.13 | -0.21 | 0.2 | -0.37 |
| FBN2 (GeneID 2201) | SID134315980 | 0.59 | 0.71 | 0.44 | 0.6 |
| SPC24 (GeneID 147841) | SID134322555 | 0.52 | 0.18 | 1.02 | 0.35 |
| LINC01139 (GeneID 339535) | SID134327074 | -0.39 | -0.36 | -0.43 | -0.37 |
| PCNP (GeneID 57092) | SID134323991 | 0.6 | 0.58 | 0.5 | 0.71 |
| CMTM8 (GeneID 152189) | SID134315246 | 0.24 | 0.22 | 0.26 | 0.26 |
| ARMCX3 (GeneID 51566) | SID134317555 | 0.47 | 0.54 | 0.18 | 0.69 |
| RGPD5 (GeneID 84220) | SID134316312 | 0.02 | -0.33 | 0.04 | 0.34 |
| SERPING1 (GeneID 710) | SID134315364 | 1.32 | 1.24 | 1.23 | 1.48 |
| ITGA10 (GeneID 8515) | SID134312933 | -0.79 | -0.98 | -0.72 | -0.68 |
| ZNF536 (GeneID 9745) | SID134324198 | -1.17 | -1.36 | -1.19 | -0.97 |
| GIT2 (GeneID 9815) | SID134317110 | 1.14 | 1.16 | 1.03 | 1.24 |
| STAT6 (GeneID 6778) | SID134311958 | 0.6 | 0.66 | 0.36 | 0.78 |
| PARP1 (GeneID 142) | SID134311939 | -0.08 | -0.28 | 0.07 | -0.04 |
| NSL1 (GeneID 25936) | SID134320701 | 0.07 | 0.45 | -0.2 | -0.06 |
| TERB1 (GeneID 283847) | SID134322120 | 1.19 | 1.32 | 1.4 | 0.84 |
| LOC389358 (retired record) (GeneID 389358) | SID134327639 | 1.04 | 1.1 | 1.11 | 0.91 |
| KCNK1 (GeneID 3775) | SID134311672 | -0.86 | -0.88 | -0.88 | -0.82 |
| FAM170B (GeneID 170370) | SID134328148 | 1.04 | 1.08 | 1.07 | 0.97 |
| ZNF354A (GeneID 6940) | SID134312709 | -0.38 | -0.43 | -0.5 | -0.21 |
| DCAF11 (GeneID 80344) | SID134322868 | -0.03 | -0.31 | 0.02 | 0.19 |
| BACH2 (GeneID 60468) | SID134314501 | -0.82 | -1.14 | -0.54 | -0.79 |
| ASB16 (GeneID 92591) | SID134317300 | -0.13 | -0.09 | 0.12 | -0.44 |
| CCDC60 (GeneID 160777) | SID134322275 | -0.15 | 0.18 | -0.26 | -0.39 |
| IGSF22 (GeneID 283284) | SID134322169 | -0.98 | -0.99 | -0.97 | -0.98 |
| MIR100HG (GeneID 399959) | SID134328236 | 0.2 | -0.11 | 0.34 | 0.37 |
| LINC01342 (GeneID 254099) | SID134327092 | 0.53 | 0.6 | 0.49 | 0.52 |
| GTF3A (GeneID 2971) | SID134316897 | -0.69 | -0.41 | -0.77 | -0.91 |
| UBXN11 (GeneID 91544) | SID134320399 | 0.58 | 0.48 | 0.65 | 0.61 |
| WNT3A (GeneID 89780) | SID134313405 | -0.91 | -0.91 | -1.08 | -0.75 |
| HYDIN (GeneID 54768) | SID134325441 | -0.24 | -0.02 | -0.3 | -0.4 |
| LNX2 (GeneID 222484) | SID134312285 | 0.89 | 0.77 | 1.04 | 0.86 |
| ANXA2 (GeneID 302) | SID134315232 | -0.75 | -0.36 | -0.95 | -0.94 |
| GALNT7 (GeneID 51809) | SID134317628 | 0.26 | 0.68 | 0.21 | -0.11 |

Records listed so far whose target name starts with D or d:
| target gene | PubChem SID | mean z-score | z-score, replicate A | z-score, replicate B | z-score, replicate C |
| --- | --- | --- | --- | --- | --- |
| DTNBP1 (GeneID 84062) | SID134321390 | -0.02 | -0.02 | -0.02 | -0.01 |
| DLEU2 (GeneID 8847) | SID134323808 | 0.16 | 0.26 | 0.04 | 0.17 |
| DNPEP (GeneID 23549) | SID134311278 | 1.22 | 1.31 | 1.2 | 1.15 |
| DDR1 (GeneID 780) | SID56478491 | 0.06 | -0.04 | 0.28 | -0.06 |
| DCAF11 (GeneID 80344) | SID134322868 | -0.03 | -0.31 | 0.02 | 0.19 |
